In the supplement of paper PMC12637763:
The list shows a part of the results. Env chains of viruses from a treatment-interruption trial, translated from the printed DNA. IC50 / IC80 of two broadly neutralizing antibodies; lower = more sensitive virus; >50 µg/ml means not reached and <0.001 µg/ml is below the lowest dose. No active / inactive call.

How the values were obtained:
[1] = biological target: antibody 10-1074; assay: neutralization IC50; higher = virus less sensitive to the antibody
Description: (§1)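 Pseudovirus bearing the Env chain mixed with antibody, from 50 µg/ml in fivefold dilutions, on TZM-bl reporter cells, in duplicate.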

[2] = biological target: antibody 3BNC117; assay: as above
Description: as §1

[3] = biological target: antibody 10-1074; assay: neutralization IC80; higher = virus less sensitive to the antibody
Description: as §1

[4] = biological target: antibody 3BNC117; assay: as above
Description: as §1

| Binder | neutralization IC50 [1] [µg/mL] | neutralization IC50 [2] [µg/mL] | neutralization IC80 [3] [µg/mL] | neutralization IC80 [4] [µg/mL] |
| --- | --- | --- | --- | --- |
| HIV-1 Env, rebound clone, placebo arm (protein) MRAKGTRKNCQHLWKWGTMLLGMLMICSAAGNLWVTVYYGVPVWKAANTTLFCASDAKAYDTEVHNVWATHACVPTDPNPQEVPLENVTENFNMWKNNMAEQMHEDIISLWDQSLKPCVKLTPLCVTLNCTDYTKNATNQNNTSGNETVGKEIEMKNCSFNITTDMRDKFQKEYALFYKDDIVSIDNNVSYRLISCNTSVLTQACPKISFEPIPIHYCAPAGFAILKCNDKKFNGTGPCKNVSTVQCTHGIRPVVSTQLLLNGSLAEGGIVIRSENITNNAKTIIVQLNETVEINCTRPNNNTRKSIHIGPGRAFYATGDIIGDIRQAHCNISGTKWNNTLKKIVGQLRAQFGTQFKNKTITFNHSSGGDPEIVMHMFNCGGEFFYCNTTQLFNSTWPANGSMAENSTNNGTITLPCRIKQIVNMWQEVGKAMYAPPIKGQIKCTSNITGLILTRDGGTETNTTTEIFRPGGGNMIDNWRSKLYKYKVVKIEPLGVAPTKAKRRVVQREKRAVTFGALFLGFLGAAGSTMGAASMTLTVQARLLLSGIVQQQNNLLRAIEAQQHMLQLTVWGIKQLQARVLAVERYLKDQQLLGIWGCSGKLICTTAVPWNASWSNKTQDEIWGNMTWMQWEKEISNYTGLIYNLIEKSQTQQEQNEQELLALDQWASLWNWFDISKWLWYIKIFIMIVGGLIGLRIVFTVLNIVNRVRQGYSPLSFQTLLPNPRGPDRPGGIEEEGGERDRDSSSRLADGFLAIFWVDLRSLFLFSYHHLRDLLLIAARIVELLGRRGWELLKYWWNLLRYWSQELKNSAISLLNATAIAVAEGTDRVIEVLQRIWRGILHIPTRIRQGLERLLL | 0.007 | 0.014 | 0.032 | 0.048 |
| HIV-1 Env, rebound clone, placebo arm (protein) MRAKGTRKNCQHLWKWGTMLLGMLMICSAAGNLWVTVYYGVPVWKAANTTLFCASDAKAYDTEVHNVWATHACVPTDPNPQEVPLENVTENFNMWKNNMAEQMHEDIISLWDQSLKPCVKLTPLCVTLNCTDYTKNATNQNNTSGNETVGKEIEMKNCSFNITTDMRDKFQKEYALFYKDDIVSIDNNVSYRLISCNTSVLTQACPKISFEPIPIHYCAPAGFAILKCNDKKFNGTGPCKNVSTVQCTHGIRPVVSTQLLLNGSLAEGDIVIRSENITNNAKTIIVQLNETVEINCTRPNNNTRKSIHIGPGRAFYATGDIIGDIRQAHCNISGTKWNNTLKKIVGQLRAQFGTQFKNKTITFNHSSGGDPEIVMHMFNCGGEFFYCNTTQLFNSTWPANGSIAENSTNNGTITLPCRIKQIVNMWQEVGKAMYAPPIKGQIKCTSNITGLILTRDGGTETNTTTEIFRPGGGNMMDNWRSELYKYKVVKIEPLGVAPTKAKRRVVQREKRAVTFGALFLGFLGAAGSTMGAASMTLTVQARLLLSGIVQQQNNLLRAIEAQQHMLQLTVWGIKQLQARVLAVERYLKDQQLLGIWGCSGKLICTTAVPWNASWSNKTQDEIWGNMTWMQWEKEISNYTGLIYNLIEKSQTQQEQNEQELLALDQWASLWNWFDISKWLWYIKIFIMIVGGLIGLRIVFTVLNIVNRVRQGYSPLSFQTLLPNPRGPDRPGGIEEEGGERDRDSSSRLADGFLAIFWVDLRSLFLFSYHHLRDLLLIAARIVELLGRRGWELLKYWWNLLRYWSQELKNSAISLLNATAIAVAEGTDRVIEVLQRIWRGILHIPTRIRQGLERLLL | 0.011 | 0.017 | 0.032 | 0.046 |
| HIV-1 Env, rebound clone, placebo arm (protein) MRAKGTRKNCQHLWKWGTMLLGMLMICSAAGNLWVTVYYGVPVWKAANTTLFCASDAKAYDTEVHNVWATHACVPTDPNPQEVPLENVTENFNMWKNNMAEQMHEDIISLWDQSLKPCVKLTPLCVTLNCTDYTKNATNQNNTSGNETVGKEIEMKNCSFNITTDMRDKFQKEYALFYKDDIVSIDNNVSYRLISCNTSVLTQACPKISFEPIPIHYCAPAGFAILKCNDKKFNGTGPCKNVSTVQCTHGIRPVVSTQLLLNGSLAEGGIVIRSENITNNAKTIIVQLNETVKINCTRPNNNTRKSIHIGPGRAFYATGDIIGDIRQAHCNISGTKWNNTLKKIVGQLRAQFGTQFKNKTITFNHSSGGDPEIVMHMFNCGGEFFYCNTTQLFNSTWPANGSMAENSTNNGTITLPCRIKQIVNMWQEVGKAMYAPPIKGQIKCTSNITGLILTRDGGTETNTTTEIFRPGGGNMMDNWRSELYKYKVVKIEPLGVAPTKAKRRVVQREKRAVTFGALFLGFLGAAGSTMGAASMTLTVQARLLLSGIVQQQNNLLRAIEAQQHMLQLTVWGIKQLQARVLAVERYLKDQQLLGIWGCSGKLICTTAVPWNASWSNKTQDEIWGNMTWMQWEKEISNYTGLIYNLIEKSQTQQEQNEQELLALDQWASLWNWFDISKWLWYIKIFIMIVGGLIGLRIVFTVLNIVNRVRQGYSPLSFQTLLPNPRGPDRPGGIEEEGGERDRDSSSRLADGFLAIFWVDLRSLFLFSYHHLRDLLLIAARIVELLGRRGWELLKYWWNLLRYWSQELKNSAISLLNATAIAVAEGTDRVIEVLQRIWRGILHIPTRIRQGLERLLL | 0.009 | 0.019 | 0.027 | 0.051 |
| HIV-1 Env, rebound clone, placebo arm (protein) MRAKGTRKNCQHLWKWGTMLLGMLMICSAAGNLWVTVYYGVPVWKAANTTLFCASDAKAYDTEVHNVWATHACVPTDPNPQEVPLENVTENFNMWKNNMAEQMHEDIISLWDQSLKPCVKLTPLCVTLNCTDYTKNATNQNNTSGNETVGKEIEMKNCSFNITTDMRDKFQKEYALFYKDDIVSIDNNVSYRLISCNTSVLTQACPKISFEPIPIHYCAPAGFAILKCNDKKFNGTGPCKNVSTVQCTHGIRPVVSTQLLLNGSLAEGGIVIRSENITNNAKTIIVQLNETVEINCTRPNNNTRKSIHIGPGRAFYATGDIIGDIRQAHCNISGTKWNNTLKKIVGQLRAQFGTQFKNKTITFNHSSGGDPEIVMHMFNCGGEFFYCNTTQLFNSTWPANESMAENSTNNGTITLPCRIKQIVNMWQEVGKAMYAPPIKGQIKCTSNITGLILTRDGGTETNTTTEIFRPGGGNMMDNWRSELYKYKVVKIEPLGVAPTKAKRRVVQREKRAVTFGALFLGFLGAAGSTMGAASMTLTVQARLLLSGIVQQQNNLLRAIEAQQHMLQLTVWGIKQLQARVLAVERYLKDQQLLGIWGCSGKLICTTAVPWNASWSNKTQDEIWGNMTWMQWEKEISNYTGLIYNLIEKSQTQQEQNEQELLALDQWASLWNWFDISKWLWYIKIFIMIVGGLIGLRIVFTVLNIVNRVRQGYSPLSFQTLLPNPRGPDRPGGIEEEGGERDRDSSSRLADGFLAIFWVDLRSLFLFSYHHLRDLLLIAARIVELLGRRGWELLKYWWNLLRYWSQELKNSAISLLNATAIAVAEGTDRVIEVLQRIWRGILHIPTRIRQGLERLLL | 0.005 | 0.012 | 0.028 | 0.044 |
| HIV-1 Env, rebound clone, placebo arm (protein) MRAKGTRKNCQHLWKWGTMLLGMLMICSAAGNLWVTVYYGVPVWKAANTTLFCASDAKAYDTEVHNVWATHACVPTDPNPQEVPLENVTENFNMWKNNMAEQMHEDIISLWDQSLKPCVKLTPLCVTLNCTDYTKNATNQNNTSGNETVGKEIEMKNCSFNITTDMRDKFQKEYALFYKDDIVSIDNNVSYRLISCNTSVLTQACPKISFEPIPIHYCAPAGFAILKCNDKKFNGTGPCKNVSTVQCTHGIRPVVSTQLLLNGSLAEGGIVIRSENITNNAKTIIVQLNETVEINCTRPNNNTRKSIHIGPGRAFYATGDIIGDIRQAHCNISGTKWNNTLKKIVGQLRAQFGTQFKNKTITFNHSSGGDPEIVMHMFNCGGEFFYCNTTQLFNSTWPANGSMAENSTNNGTITLPCRIKQIVNMWQEVGKAMYAPPIKGQIKCTSNITGLILTRDGGTETNTTTEIFRPGGGNMMDNWRSELYKYKVVKIEPLGVAPTKAKRRVVQREKRAVTFGALFLGFLGAAGSTMGAASMTLTVQARLLLSGIVQQQNNLLRAIEAQQHMLQLTVWGIKQLQARVLAVERYLKDQQLLGIWGCSGKLICTTAVPWNASWSNKTQDEIWGNMTWMQWEKEISNYTGLIYNLIEKSQTQQEQNEQELLALDQWASLWNWFDISKWLWYIKIFIMIVGGLIGLRIVFTVLNIVNRVRQGYSPLSFQTLLPNPRGPDRPGGIEEEGGERDRDSSSRLADGFLAIFWVDLRSLFLFSYHHLRNLLLIAARIVELLGRRGWELLKYWWNLLRYWSQELKNSAISLLNATAIAVAEGTDRVIEVLQRIWRGILHIPTRIRQGLERLLL | 0.015 | 0.022 | 0.047 | 0.067 |
| HIV-1 Env, rebound clone, placebo arm (protein) MRAKGTKKSWQNLWWRWGTMLLGMLMICNAVEQLWVTVYYGVPVWKEANTTLFCASDAKAYDTEVHNVWATHACVPTDPNPQEVFLENVTENFNMWKNNMVEQMHEDIISLWDQSLKPCVKLTPLCVTLNCTDLNCTSISNSSSTSNSSAKCNISNSEGEEEIKNIKNCTFNVTTSIKDKIQKEYALFYRLDIVPIDGSNDSYRLISCNTSVITQACPKVNFEPIPIHYCTPAGFAILKCNDKKFNGTGPCKNVSTVQCTHGIRPVVSTQLLLNGSLAEEEVVIRSENFTDNAKTIIVQLNESVEINCTRPSNNTRKSITIGPGRAFYATGEIIGDIRQAHCNISKAKWGNSLELVVSKLREHENKTIIFKQSSGGDPEIVMHSFICGGEFFYCNTTQLFNSTWTLNDTNFENSTNGNETITLPCRIKQIINMWQEVGKAMYAPPIRGQIRCSSNITGLLLARDGGSNNTNNETFRPEGGNMRDNWRSELYKYKVVRIEPLGVAPTRARRRVVQREKRAVGAIGAMFLGFLGAAGSTMGAASITLTVQARLLLSGIVQQQNNLLRAIEAQQHLLQLTVWGIKQLQARVLAVERYLKDQQLLGIWGCSGRLICTTNVPWNNSWSNKNYSQIWDNMTWMEWEREIDNYTGLIYTLIEQSQNQQEKNEQELLELDKWASLWNWFSITNWLWYIRIFIMIVGGLIGLRIVFAIFSLVNRVRQGYSPLSFQTRLPTQRGPDRPEETEEEGGEQGKDRSIRLVDGFLALIWDDLRSLCLFSYHRLRDLLLIAARTVEILGRGGWELLKYWKNLLQYWSQELKKSAIDLYNTIAIAVAEGTDRVIEAIQRICRAILHIPRRIRQGLERGLL | 0.059 | 0.181 | 0.347 | 1.08 |
